Anti-infective test results gathered from many reports (values: NIAID ChemDB through PubChem).

Shared fields: growth or infection tests; agent: Cryptococcus neoformans; endpoint: MIC

Rows are shuffled and stem from different studies. An empty or dashed field is not shown.

SMILES | method | strain or isolate | result
Oc1cccc(C=Nc2ccccc2O)c1 | broth dilution | F-10 | 8 µg/mL
CCC(C)n1ncn(-c2ccc(N3CCN(c4ccc(OC[C@H]5CO[C@](Cn6cncn6)(c6ccc(Cl)cc6Cl)O5)cc4)CC3)cc2)c1=O | broth dilution | Clinical isolate (IM 031633) | 0.25 µg/mL
CS(=O)(=O)N1CCC(n2cc(-c3nc(-c4ccccc4)n[nH]3)nn2)CC1 | agar | - | 100 µg/mL
COc1ccc(/C=C2\CS(=O)c3ccccc3C2=O)cc1 | - | 25 | 50 µg/mL
CC1(C)C(=O)CC[C@@]2(C)C1CC[C@]1(C)[C@@H]2[C@H](O)C=C2[C@@H]3C[C@@](C)(C(=O)O)CC[C@]3(C)CC[C@]21C | absorbance | - | 47 µg/mL
COc1cc(C2C(C#N)=C(N)OC3=C2CSc2ccccc23)ccc1O | - | Farwania | 3 µg/mL
C[C@@H]1CC(=O)N(Cc2ccccc2)C1=O | broth dilution / turbidity | ATCC 32264 | 15.6 µg/mL
CC(C)(C)OC(=O)N1CCC(n2cc(-c3nc(-c4ccccc4)n[nH]3)nn2)CC1 | agar | - | >200 µg/mL
C[C@@H](n1ncn(-c2ccc(OCC(F)(F)C(F)F)cc2)c1=O)[C@](O)(Cn1cncn1)c1ccc(F)cc1F | - | DUMC 251.86 | 0.125 µg/mL
CNC(NC)c1ccc2cc(-n3cc(CCCO)nn3)c(=O)oc2c1 | broth dilution | ATCC 62066 | >750 µg/mL
CCCCCCCC(=O)NC(CCCN)C(=O)NC(CCCN)C(=O)NC(CCCN)C(=O)NC(CCCN)C(N)=O | broth dilution | ATCC 2344 | >100 µg/mL
Oc1ccccc1N=Cc1ccccc1 | broth dilution | LMM 820 | 5.7 µg/mL
COc1ccc(/C=C2\CSc3ccccc3C2=O)cc1OC | - | 93/V | 100 µg/mL
O=C(c1ccc(Cl)cc1)N1CCC(n2cc(-c3nc(-c4ccccc4)n[nH]3)nn2)CC1 | agar | - | 100 µg/mL
N#CC1=C(N)OC2=C(CSc3ccccc32)C1c1ccc(-c2ccccc2)cc1 | - | 25 | 25 µg/mL
Oc1ccccc1C=Nc1ccccc1O | broth dilution | 96806 | 8 µg/mL
C[C@@H]1C(=O)N(CCCc2ccccc2)C(=O)[C@@H]1C | broth dilution / turbidity | ATCC 32264 | 62.5 µg/mL
Oc1ccc(O)c(C=Nc2ccccc2O)c1 | broth dilution | F-10 | 11.3 µg/mL
CC1CC(=O)N(c2ccc(Cl)cc2)C1=O | broth dilution / turbidity | ATCC 32264 | 125 µg/mL
C=C1CC[C@@H]2C(C)(C)CCC[C@@]2(C)[C@@H]1CC/C(C)=C/Cn1c[n+](C)c2ncnc(NO)c21 | resazurin | ATCC 90113 | 10 µg/mL
Oc1ccccc1N=Cc1ccc2c(c1)OCO2 | broth dilution | ATCC 24067 | 4 µg/mL
CC1CC(=O)N(CCCc2ccccc2)C1=O | broth dilution / turbidity | ATCC 32264 | 125 µg/mL
Oc1ccccc1N=Cc1ccc(F)cc1 | broth dilution | ATCC 24067 | 4 µg/mL
COc1ccc2c(c1)C1=C(CS2)C(c2ccc3c(c2)OCO3)C(C#N)=C(N)O1 | - | 25 | 3 µg/mL
CC1C(=O)N(CCc2ccccc2)C(=O)C1C | broth dilution / turbidity | ATCC 32264 | 125 µg/mL
NC(=O)C1=C(O)OC2=C(CSc3ccccc32)C1c1ccccc1 | - | 25 | 12.5 µg/mL
Cn1nc(Cc2ccc(Cl)cc2)c2ccccc2c1=O | broth dilution | Clinical isolate (IM 983036) | ≥250 µg/mL
C[C@@H](c1ncncc1F)[C@](O)(Cn1cncn1)c1ccc(F)cc1F | broth dilution | B 34336 | 0.063 µg/mL
COc1ccc(/C=C2\CSc3ccc(OC)cc3C2=O)cc1 | - | 25 | 12.5 µg/mL
CCCCCCCC(=O)NC(CCCN)C(=O)NC(CCCN)C(=O)NC(CCCN)C(=O)NC(CCCN)C(=O)NC(CCCN)C(N)=O | broth dilution | ATCC 2344 | >100 µg/mL
C[C@@H]1C(=O)N(CCc2ccccc2)C(=O)[C@@H]1C | broth dilution / turbidity | ATCC 32264 | 62.5 µg/mL
COc1ccccc1-c1c(C#N)c(OC)nc2c1CSc1ccc(Cl)cc1-2 | - | 93/V | 25 µg/mL
CCCCCCCC(=O)NC(CCCN)C(=O)NC(CCCN)C(N)=O | broth dilution | ATCC 2344 | >100 µg/mL
O=C1/C(=C/c2ccc(O)c(O)c2)CCc2ccccc21 | - | Farwania | 100 µg/mL
CC1C(=O)N(c2ccccc2)C(=O)C1C | broth dilution / turbidity | ATCC 32264 | 125 µg/mL
c1ccc(-c2n[nH]c(-c3cn(C4CCNCC4)nn3)n2)cc1 | agar | - | 60 µg/mL
COc1ccccc1/C=C1\CSc2ccc(Cl)cc2C1=O | - | 93/V | 12.5 µg/mL
CCCCCCCCCCCCCC(=O)NC(CCCN)C(=O)NC(CCCN)C(=O)NC(CCCN)C(N)=O | broth dilution | ATCC 2344 | 12.5 µg/mL
CN1CCC(n2cc(-c3nc(-c4ccc(Cl)cc4)n[nH]3)nn2)CC1 | agar | - | >200 µg/mL
COc1ccc2c(c1)C(=O)/C(=C/c1ccc3ccccc3c1)CO2 | - | Farwania | 12.5 µg/mL
Oc1ccccc1N=Cc1cccc(O)c1O | broth dilution | F-10 | 4 µg/mL
COc1ccc(C2C(C#N)=C(N)OC3=C2CSc2ccccc23)cc1 | - | 93/V | 5 µg/mL